Experimental data reported in PubChem BioAssay AID1903 (Southern Research Specialized Biocontainment Screening …, 2009).

The chains behind the UniProt entries cited, without tags or fusion partners.
UniProt P03070, whole entry: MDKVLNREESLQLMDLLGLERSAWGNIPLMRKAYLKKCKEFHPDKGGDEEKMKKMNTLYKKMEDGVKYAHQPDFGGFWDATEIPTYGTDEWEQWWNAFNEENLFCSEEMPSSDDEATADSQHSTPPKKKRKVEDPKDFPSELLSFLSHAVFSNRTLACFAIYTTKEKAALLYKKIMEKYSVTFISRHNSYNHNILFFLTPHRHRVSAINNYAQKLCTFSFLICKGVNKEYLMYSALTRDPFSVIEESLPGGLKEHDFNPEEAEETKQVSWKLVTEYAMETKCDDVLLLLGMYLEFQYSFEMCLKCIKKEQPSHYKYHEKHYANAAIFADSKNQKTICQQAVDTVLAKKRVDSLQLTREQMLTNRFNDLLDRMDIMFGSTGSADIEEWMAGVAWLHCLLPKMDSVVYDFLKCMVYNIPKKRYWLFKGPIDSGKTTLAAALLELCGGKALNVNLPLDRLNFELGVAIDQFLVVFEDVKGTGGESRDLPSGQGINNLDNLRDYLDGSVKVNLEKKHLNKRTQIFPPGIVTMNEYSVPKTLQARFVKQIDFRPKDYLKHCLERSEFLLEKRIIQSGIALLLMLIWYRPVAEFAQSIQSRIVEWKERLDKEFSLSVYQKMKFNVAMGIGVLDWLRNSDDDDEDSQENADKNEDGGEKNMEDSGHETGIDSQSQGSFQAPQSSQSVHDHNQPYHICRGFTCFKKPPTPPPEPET

Target: Large T antigen (Simian virus 40) (UniProt P03070)
Assay: SV40 large T antigen inhibitors, biochemical (AID 1903)
Conditions: SV40 large T antigen ATPase/helicase inhibition assay

Row | SMILES | IC50
1 | COc1ccc(NC2CCN(C(=O)OC(C)(C)C)CC2)cc1 | 24.3 µM
2 | CCOC(=O)N1CCC(Nc2ccc(OC)cc2)CC1 | 10.6 µM
